{"sequences": {"note": "The chains behind the UniProt entries cited, without tags or fusion partners.", "UniProt Q9YQ12, entry or part of it A71V/I50V": "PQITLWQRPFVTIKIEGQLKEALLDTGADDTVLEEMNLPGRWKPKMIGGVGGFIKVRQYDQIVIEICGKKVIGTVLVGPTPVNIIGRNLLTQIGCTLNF", "UniProt Q9YQ12, entry or part of it I84V": "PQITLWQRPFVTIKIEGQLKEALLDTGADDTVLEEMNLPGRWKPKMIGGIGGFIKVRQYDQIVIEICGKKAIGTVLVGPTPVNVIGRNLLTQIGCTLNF"}, "source": "ChEMBL document CHEMBL4627412", "key": {"Protease [1]": {"target": "Protease (Human immunodeficiency virus 1, UniProt Q9YQ12, A71V/I50V)", "experiment": "Inhibition of HIV1 NL4-3 protease I50V/A71V mutant expressed in Escherichia coli TAP-106 cells using EDANS/DABCYL-labelled 10-amino acid containing protease cleavage site as substrate preincubated for 1 hr followed by substrate addition and measured for 60 mins by FRET assay"}, "Protease [2]": {"target": "Protease (Human immunodeficiency virus 1, UniProt Q9YQ12, I84V)", "experiment": "Inhibition of HIV1 NL4-3 protease I84V mutant expressed in Escherichia coli TAP-106 cells using EDANS/DABCYL-labelled 10-amino acid containing protease cleavage site as substrate preincubated for 1 hr followed by substrate addition and measured for 60 mins by FRET assay"}}, "note": "pKi: −log10 of the molar value.", "data": [{"smiles": "Cc1cccc(C)c1OCC(=O)N[C@@H](Cc1ccccc1)[C@@H](O)C[C@H](Cc1ccccc1)NC(=O)[C@H](C(C)C)N1CCCNC1=O", "note": "[LOPINAVIR]", "values": [{"measurement": "pKi", "setting": "Protease [1]", "result": 10.21}, {"measurement": "pKi", "setting": "Protease [2]", "result": 10.29}]}]}
